In US20230296621A1:

Legend:
[1] = biological target: S sensors L15 + S25: S(aa 328-533)-15aa-LgBiT and S(aa 328-533)-25aa-SmBiT (SARS-CoV-2)
[2] = biological target: S sensors L15 + S25: S(aa 328-533)-15aa-LgBiT and S(aa 328-533)-25aa-SmBiT (SARS-CoV-2); test: spLUC, lyophilized S sensors

CR3022 Fab was tested, and the percent of signal competed [1] was 90%.
Work on CR3022 IgG (antibody) yielded a percent signal strength of lyophilized compared to fresh sensors [2] of 50%.
